A mixed list of measured activities; the numbers were collected in NIAID ChemDB.

Common to all: tests on isolated targets

Two numbers with a dash give a range or band.

SMILES | measure | protein | tested at | organism | value
COc1ccc(-c2ccccc2C)c(-c2ccc3cc(-c4nc5cc(C(=O)O)ccc5n4C4CCCCC4)ccc3n2)c1 | inhibition | NS5B polymerase | 33 µM | Hepatitis C virus | 103%
COc1ccc(COc2ccc(-c3cnc4c(-c5nn[nH]n5)cnn4c3C3CCCCC3)cc2)cc1C | IC50 | RNA-dependent RNA polymerase |  | Hepatitis C virus | 1–10 µM
CNC(=O)c1c(-c2ccc(F)cc2)oc2cc(-c3cc(C)on3)c(OC(C)C)cc12 | IC50 | Nonstructural protein 5B |  | Hepatitis C virus | ≤0.5 µM
O=C(NC(Cc1c[nH]c2ccc(O)cc12)C(=O)O)c1ccc2c(c1)nc(-c1ccc3nc(-c4ccccc4)cnc3c1)n2C1CCCCC1 | inhibition | NS5B polymerase | 100 µM | Hepatitis C virus | 100%
COc1nc(Nc2ccc3[nH]ncc3c2)nc(N2CCN(C)CC2)n1 | inhibition | DNA polymerase | 0.1 µg/mL | Hepatitis B virus | 42%
COc1ccc(-c2ccc(-c3ccnc4cc(C(=O)NCCNC(C)=O)nn34)cc2)cc1 | IC50 | RNA-dependent RNA polymerase |  | Hepatitis C virus | >10 µM
CC(=O)NCc1cccc(COC(=O)Nc2ccsc2-c2nc(C(=O)O)c(O)c(=O)[nH]2)c1 | IC50 | HCV polymerase |  | Hepatitis C virus | <25 µM
Cc1ccc(-c2cc(NS(=O)(=O)c3cc(C)ccc3C)c(C(=O)O)s2)cc1 | IC50 | NS3 ATPase |  | Hepatitis C virus | <5 µM
COc1ccc(-c2ccc(Cl)cc2)c(-c2ccc3cc(-c4nc5cc(C(=O)O)ccc5n4CCN(C)C)ccc3n2)c1 | inhibition | NS5B polymerase | 100 µM | Hepatitis C virus | 89.85%
CC[C@@H](C=O)NC(=O)[C@H](CC(C)C)NC(=O)[C@@H](NC(=O)[C@@H](NC(=O)c1csc(-c2ccncc2)n1)C(C)C)C(C)C | Ki | NS3 protease |  | Hepatitis C virus | 1–100 µM
O=C(O)c1cccc(COc2ccc(-c3cnc4c(-c5nn[nH]n5)cnn4c3C3CCCCC3)cc2)c1 | IC50 | RNA-dependent RNA polymerase |  | Hepatitis C virus | <1 µM
O=C(O)c1sc(-c2ccccc2)cc1NC(=O)N1CCN(c2ccc(F)cc2)CC1 | IC50 | NS3 ATPase |  | Hepatitis C virus | >20 µM
O=C(O)c1cc2nc(-c3ccc(Cl)cc3)cc(Nc3ccc(N4CCOCC4)cc3)n2n1 | IC50 | RNA-dependent RNA polymerase |  | Hepatitis C virus | >10 µM
COc1nc(Nc2ccc3[nH]ncc3c2)nc(NN2CCOCC2)n1 | inhibition | DNA polymerase | 0.01 µg/mL | Hepatitis B virus | 11%
CCOc1ccc([N+](=O)[O-])cc1-c1ccc2cc(-c3nc4cc(C(=O)O)ccc4n3C3CCCCC3)ccc2n1 | inhibition | NS5B polymerase | 100 µM | Hepatitis C virus | 101%
CC(=O)Nc1nc(C)c(S(=O)(=O)Nc2ccccc2-c2nc(C(=O)O)c(O)c(=O)[nH]2)s1 | IC50 | HCV polymerase |  | Hepatitis C virus | <100 µM
O=C(O)c1sc(-c2ccccc2)cc1NS(=O)(=O)c1c(F)cc(F)cc1F | IC50 | NS3 ATPase |  | Hepatitis C virus | <5 µM
COc1nc(Nc2ccc3[nH]ncc3c2)nc(N2CCC(O)CC2)n1 | inhibition | DNA polymerase | 0.01 µg/mL | Hepatitis B virus | 25%
CC[C@@H](C=O)NC(=O)[C@@H]1C[C@@H](OC(=O)Nc2cc(OC)ccc2OC)CN1C(=O)[C@@H](NC(=O)[C@@H](NC(=O)c1cnccn1)C(C)C)C(C)C | Ki | NS3 protease |  | Hepatitis C virus | 1–100 µM
O=C(O)c1cc2nccc(-c3cccc(-c4ccsc4)c3)n2n1 | IC50 | RNA-dependent RNA polymerase |  | Hepatitis C virus | >10 µM
O=C(O)c1nc(-c2sccc2NS(=O)(=O)Cc2ccccc2)[nH]c(=O)c1O | IC50 | HCV polymerase |  | Hepatitis C virus | <25 µM
O=C(O)COc1ccc(-c2ccc(Cl)cc2)c(-c2ccc3cc(-c4nc5cc(C(=O)O)ccc5n4C4CCCCC4)ccc3n2)c1 | inhibition | NS5B polymerase | 100 µM | Hepatitis C virus | 96.94%
O=C(Nc1ccsc1-c1nc(C(=O)O)c(O)c(=O)[nH]1)OCc1cccc(Cl)c1 | IC50 | HCV polymerase |  | Hepatitis C virus | <25 µM
Cc1ccc(S(=O)(=O)Nc2cc(-c3ccc(C#N)cc3)sc2C(=O)O)cc1 | IC50 | NS3 ATPase |  | Hepatitis C virus | 5–20 µM
CNC(=O)c1c(-c2ccc(F)cc2)oc2cc(-c3c(C)n[nH]c3C)c(OC(C)C)cc12 | IC50 | Nonstructural protein 5B |  | Hepatitis C virus | ≤0.5 µM
O=C(NCc1ccc(Cl)c(Cl)c1)Nc1cccc(-c2nc(C(=O)O)c(O)c(=O)[nH]2)c1 | IC50 | HCV polymerase |  | Hepatitis C virus | <100 µM
COCC(C)N(C(=O)C1CCC(C)CC1)c1cc(-c2ccccc2)sc1C(=O)O | IC50 | NS3 ATPase |  | Hepatitis C virus | <5 µM
O=C(NC(C(=O)O)C1CCCCC1)c1ccc2c(c1)nc(-c1ccc3nc(-c4ccccc4)cnc3c1)n2C1CCCCC1 | inhibition | NS5B polymerase | 100 µM | Hepatitis C virus | 98.12%
O=C(Cc1ccccn1)Nc1ccsc1-c1nc(C(=O)O)c(O)c(=O)[nH]1 | IC50 | HCV polymerase |  | Hepatitis C virus | <25 µM
CC[C@@H](C=O)NC(=O)[C@@H]1C[C@@H](OCc2ccccc2)CN1C(=O)[C@@H](NC(=O)c1nccc2ccccc12)C(C)C | Ki | NS3 protease |  | Hepatitis C virus | 1–100 µM
COC(=O)c1sc(-c2ccccc2)cc1N(C(=O)c1ccc(Cl)cc1Cl)C(C)C | IC50 | NS3 ATPase |  | Hepatitis C virus | 5–20 µM
CC[C@@H](C=O)NC(=O)[C@@H]1C[C@@H](NCc2ccccc2)CN1C(=O)[C@@H](NC(=O)[C@@H](NC(=O)c1cnccn1)C(C)C)C(C)C | Ki | NS3 protease |  | Hepatitis C virus | >100 µM
O=C(O)c1cnn2c(C3CCCCC3)c(/C=C/c3ccccc3)cnc12 | IC50 | RNA-dependent RNA polymerase |  | Hepatitis C virus | 1–10 µM
O=C(Cc1ccc(Cl)cc1Cl)Nc1ccsc1-c1nc(C(=O)O)c(O)c(=O)[nH]1 | IC50 | HCV polymerase |  | Hepatitis C virus | <25 µM
O=C(O)c1ccc2c(c1)nc(-c1ccc3nc(-c4ccc(Cl)c(Cl)c4)ccc3c1)n2C1CCCCC1 | inhibition | NS5B polymerase | 100 µM | Hepatitis C virus | 98.89%
O=C(N[C@@H](Cc1cc2ccccc2[nH]1)C(=O)O)c1cc2nc(-c3cccs3)c(C3CCCCC3)c(=O)n2[nH]1 | IC50 | RNA-dependent RNA polymerase |  | Hepatitis C virus | <1 µM
CNC(=O)c1c(-c2ccc(F)cc2)oc2cc(N(C)S(C)(=O)=O)c(OCC(=O)O)cc12 | IC50 | Nonstructural protein 5B |  | Hepatitis C virus | ≤0.5 µM
COc1nc(NCCCN2CCOCC2)nc(Nc2ccc3[nH]ncc3c2)n1 | inhibition | DNA polymerase | 0.1 µg/mL | Hepatitis B virus | 39%
CNC(=O)c1c(-c2ccc(F)cc2)oc2cc(-c3ccc[nH]3)c(OC(C)C)cc12 | IC50 | Nonstructural protein 5B |  | Hepatitis C virus | ≤0.5 µM
NC(=O)c1cc2nc(-c3ccc(Cl)cc3)cc(-c3ccc(Oc4ccccc4)cc3)n2n1 | IC50 | RNA-dependent RNA polymerase |  | Hepatitis C virus | >10 µM
CC[C@@H](C=O)NC(=O)[C@@H]1C[C@@H](OC(=O)Nc2ccccc2)CN1C(=O)[C@@H](NC(=O)[C@@H](NC(=O)c1cnccn1)C(C)C)C(C)C | Ki | NS3 protease |  | Hepatitis C virus | 1–100 µM
Cc1ccccc1S(=O)(=O)Nc1cc(-c2ccc(C(N)=O)cc2)sc1C(=O)O | IC50 | NS3 ATPase |  | Hepatitis C virus | 5–20 µM
CN(C)c1cc(-c2ccccc2)nc2ccc(-c3nc4cc(C(=O)O)ccc4n3C3CCCCC3)cc12 | inhibition | NS5B polymerase | 100 µM | Hepatitis C virus | 96.74%

Percent inhibition refers to the dose given; in toxicity tests it is the harm to the cells. ICn is the concentration giving n% inhibition. An empty or dashed field is not shown. Lines come from different laboratories, so protocols vary.